In this data set the test system is HIV-2. As to the method: In an embodiment, TZM-bl cells (AIDS Research and Reference Reagent Program, National Institutes of Health, USA) were cultured in complete growth medium that consists of Dulbecco's minimal essential medium (DMEM) supplemented with 10% fetal bovine serum (FBS), 100 U/ml of penicillin-streptomycin (Gibco/Invitrogen, USA), 1 mM of sodium pyruvate (Gibco/Invitrogen, USA), 2 mM of L-glutamine (Gibco/Invitrogen, USA) and 1 mM of non-essential amino acids (Gibco/Invitrogen, USA).
In an embodiment, the primary isolates 93AOHDC249, 93AOHDC250, 01PTHDECJN and 03PTHCC9, used in this study were previously isolated, titrated and characterized for co-receptor usage. HIV reference strain SG3.1 was obtained by transfection of HEK293T cells with pSG3.1 (HIV-1) plasmid using Fugene 6 reagent (Roche, Switzerland) according to manufacturer's instructions.
In an embodiment, the 50% tissue culture infectious dose (TCID50) of the virus was determined in a single-round viral infectivity assay using a luciferase reporter gene assay in TZM-bl cells and calculated using the statistical method of Reed and Muench^27.
In an embodiment, the antiviral activity of the compounds was determined in a single-round assay with TZM-bl cells as previously described ^26. Cells were infected with 200 TCID50 of virus in the presence of serial fold dilutions of the BSS compounds in GM, supplemented with DEAE-dextran (19.7 μg/ml). After 48 h of infection, luciferase expression was quantified with the One-Glow luciferase assay substrate reagent (Promega, USA) according to manufacturer's instructions. Briefly, a volume of reagent equal to that of the culture medium in each well was added. For 96-well plates, typically 100 μl of reagent is added to the cells grown in 100 μl of medium. After an incubation of 3 minutes at room temperature to allow complete cell lysis luminescence was measured in Tecan Infinite M200. Background luminescence was measured by using control wells that contained only target cells and GM. Maraviroc (CCR5 antagonist), T1249 (fusion inhibitor) and AMD3100 (CXCR4 antagonist) were used as positive controls of the antiviral activity. At least two independent experiments were performed for each analysis and each assay was set up in triplicate wells.
In an embodiment, dose-response curves were estimated from the percentage of inhibition of infection (y-axis) against logo of concentration of each compound (x-axis) using the sigmoidal dose-response equation (variable slope) in GraphPad Prism version 5.00 for Windows (GraphPad Software, San Diego Calif. USA, www.graphpad.com). IC50 and IC90 values were determined from this curve. IC50 and IC90 values correspond to the concentration of compound that inhibits viral replication in 50% and 90%, respectively.

Where [1] appears, read: drug resistant HIV-2 primary isolates relative to the control isolate 03PTHCC19.

Like-named read-outs stand apart in the source and are kept apart here.

With `CC1(C)S[C@H]2N(C(=O)[C@]23CC=C(C(=O)OCc2ccccc2)[C@@H]3C(=O)c2ccccc2)[C@H]1C(=O)OC(c1ccccc1)c1ccccc1` [BSS-730A], the “IC50 Fold change” value is 2.25 (00PTHCC20 relative to IC50 of wild type isolate 03PTHCC19); 2.88 (00PTHDECT relative to IC50 of wild type isolate 03PTHCC19); 2.38 (03PTHCC20 relative to IC50 of wild type isolate 03PTHCC19); 2.00 (03PTHSM9 relative to IC50 of wild type isolate 03PTHCC19); 1.50 (10PTHSJIG relative to IC50 of wild type isolate 03PTHCC19); 2.13 (15PTHCEC relative to IC50 of wild type isolate 03PTHCC19). Besides, the “IC50 Fold change” value (15PTHSJIG relative to IC50 of wild type isolate 03PTHCC19) was determined as 2.25. Moreover, the “IC90 Fold change” value by setting is: (00PTHCC20 relative to IC90 of wild type isolate 03PTHCC19) 1.14; (00PTHDECT relative to IC90 of wild type isolate 03PTHCC19) 0.89; (03PTHCC20 relative to IC90 of wild type isolate 03PTHCC19) 1.48; (03PTHSM9 relative to IC90 of wild type isolate 03PTHCC19) 1.81; (10PTHSJIG relative to IC90 of wild type isolate 03PTHCC19) 0.50; (15PTHCEC relative to IC90 of wild type isolate 03PTHCC19) 0.79. Besides, the “IC90 Fold change” value (15PTHSJIG relative to IC90 of wild type isolate 03PTHCC19) was found to be 0.88. Further, under setting [1], the “median IC50 fold-change” value is on record as 2.39. Also, the “median IC90 fold-change” value under setting [1] amounted to 1.09.

These data come from patent publication US11666559B2, “Spiro-lactam compounds, process and uses thereof” (UNIVERSIDADE DE COIMBRA, priority 2017, dated 2023).
